From the supplement of paper PMC12637763
The other results are listed elsewhere or left out. Env chains of viruses from a treatment-interruption trial, translated from the printed DNA. IC50 / IC80 of two broadly neutralizing antibodies; lower = more sensitive virus; >50 µg/ml means not reached and <0.001 µg/ml is below the lowest dose. No active / inactive call.

B1: HIV-1 Env, rebound clone, placebo arm (protein)
chain: MRVKGIRKSCQRLWRWGIMLLGMLMISSATEKLWVTVYYGVPVWKEANTTLFCASDAKAYDTEAHNVWATHACVPTDPNPQELDLENVTENFNMWKNGMVEQMHEDVISLWDQSLKPCVKLTPLCVTLNCTNDVNLRVNSSNSNSSINSSSSISNSSIEEKGEIKNCSFNITTSIRDKVTKEYALFYRLDIVSIKDDKSDNSNNTNTRYRLINCNTSVITQACPKVSFEPIPIHYCAPAGFAILKCKDREFNGSGTCQNVSTVQCTHGIKPVVSTQLLLNGSLAEGEVVIRSENFSDNAKTIIVQLSRPVVINCTRPNNNTRKSIHIAPGRTFYATGDIIGDIRQAHCNISKRDWNKTLKEVKGKLEKQYNKTILFNQSSGGDPEIVFHTFNCAGEFFYCNTTNLFNNNITINNGTNGTNTNENITLPCRIKQIINLWQEVGKAMYAPPIKGQIRCSSNITGLLLTRDGGLNENRTNDTVRPGGGDMRDNWRSELYRYKVVEIEPLGIAPTKAKRRVVQREKRAVGAIGAMFLGLLGAAGSTMGAASITLTVQARLVLSGIVQQQNNLLRAIEAQQHLLQLTVWGIKQLQARVLAVERYLKDQQLLGIWGCSGKLICTTSVPWNSSWSNRSLEYIWNNMTWMQWEREIDNYTGKIYTLIEEAQHKQEENELELLKLDEWSNLWNWFDISKWLWYIKIFIMIVGGLIGLRIVFAVISIVNRVRKGYSPLSFQTHFPAPRGPDRPGGTEEEGGDRDRDRSTRLVDGFLALVWDDLRSLILFLYHHLRDLLLIITRIVGLLGRRGWEILKYWWNLLQYWSRELKLSAISLYNATAVAVAEGTDRVIEVVQRIFRGVLHVPRRIRQGLERILV
B2: HIV-1 Env, rebound clone, antibody arm (protein)
chain: MKVRVMQRNWQHLGRWGLLFLGLLICCNATEQLWVTVYYGVPVWKEATTTLFCASDAKGYEKEAHNVWATHACVPTDPNPQEIPLVNVTENFNMWKNNMVEQMQTDIISLWDQSLKPCVKLTPLCVTLNCNNNIKGANGNNSTNPDMKNCSFNMTTEVRDKRLKVSALFYKIDLTPLNETSGEYRLINCNTSTIKQACPKVSWDPIPIHYCAPAGYAILKCRDKNFNGTGPCNNVSTVQCTHGIKPVVSTQLLLNGSLAEEDIVIRTQNISDNAKTIIVSLNESVSINCIRPGNNTRKSIHIGPGQVFYANNDIIGDIRKAFCTLNGTQWNKTLDRVKAKLRSLFNKTTIIFAQPSGGDLEVTMHSFNCRGEFFYCNTSGLFNDIDSNITLPCRIKQIINMWQGVGQAMYTAPIAGNITCVSNITGLLLTRDGGPDNDNETFRPGGGDMRDNWRSELYKYKVVEIEPLGIAPTRAKRQVVRRERRAVGIGAMFLGFLGAAGSTMGAASIALTVQARQLLSGIVQQQNNLLRAIEAQQHLLQLTVWGIKQLQARVLAVERYLKDQQLLGVWGCSGKLICTTSVPWNSSWSNKSQQEIWDNMTWMDWEREISTYSQTIYKLLEESQYQQDKNEQELLALDKWASLWNWFDISNWLWYIRIFIMIVGGLIGLRIVFAGLAIVNRVRKGYSPLSLQTLIPNSRGPDRPEGIEEGGGEQDRDRSVRLVNGFLALVWDDLRNLCLFSYRLLRDFILIAARTVDRGLRGGWKALKYLWNLTQYWSRELKDSAISLYNSIAIAVAEGTDRIIEALQIIVRGVLHIPRRIRQGLERALL
B3: HIV-1 Env, rebound clone, placebo arm (protein)
chain: MRVRGILRNYPQWWIWGILGFWMVMICNVVGNLWVTVYYGVPVWKDAKTTLFCASDAKAYDKEVHNVWATHACVPTDPNPQELVLGNVTENFNMWKNDMVDQMHEDVISLWDQSLKPCVKLTPLCVTLECVNANVTTVNVTNENINGTEEIKNCTFNATTEINDRKTREHALFYKLDIVPLETNHSSTKYRLINCNTSAVTQACPKVNFDPIPIHYCAPAGYAILKCNNKTFNGTGPCQNVSTVQCTHGIKPVVSTQLLLNSSLAEGEIIIRSENLTNNAKTIIVHLNDSIEITCIRPNNNTRKSIRIGPGQTFYATGDIIGDIRQAHCNISRNKWNQTLQRVSKKLGEHFPNATTIKFTSPSGGDLEIITHSFNCRGEFFYCNTSQLFNRTYMPNDTGSDSTGNSSDITDITIPCRIKQFINMWQGVGRAIYAPPIAGNITCKSNITGILLTRDGGRTNDNSTETFRPGGGDMRDNWRSELYKYKVVEIKPLGIAPTEAKRRVVAREKRAAGLGAVIFGFLGAAGSTMGAASMALTVQARQLLSGIVQQQSNLLRAIEAQQHMLQLTVWGIKQLQARVLAVERYLKDQRLLGIWGCSGKLICPTTVPWNSSWSNRSLADIWENMTWMQWDKEIDNYTNIIYSLLEESQNQQERNEQELLALDSWNSLWTWFSISNWLWYIKIFIMIVGGLIGLRIIFAVLSIVNRVRQGYSPLSFQTLTPNPREPDRLRGIEEEGGEQDRDRSIRLVNGFLALVWEDLRSLCLFSYHRLRDFILVTARAVELLGRSSYKGLQRGWEALKYLGSLVQYWGLELKKSAISLFDTLAIVIAGWTDRVIELGQRIGRTILHIPRRIRQGFERALL
B4: HIV-1 Env, rebound clone, placebo arm (protein)
chain: MRVRGILRNYPQWWIWGILGFWMVMICNVVGNLWVTVYYGVPVWKDAKTTLFCASDAKAYDKEVHNVWATHACVPTDPNPQELVLGNVTENFNMWKNDMVDQMHEDVISLWDQSLKPCVKLTPLCVTLECVNANVTTVNVTNENINGTEEIKNCTFNATTEINDRKTREHALFYKLDIVPLETNHSSTKYRLINCNTSAVTQACPKVNFDPIPIHYCAPAGYAILKCNNKTFNGTGPCQNVSTVQCTHGIKPVVSTQLLLNGSLAEGEIIIRSENLTNNAKTIIVHLNDSIEITCIRPNNNTRKSIRIGPGQTFYATGDIIGDIRQAHCNISRNKWNQTLQRVSKKLGEHFPNATTIKFTSPSGGDLEIITHSFNCRGEFFYCNTSQLFNRTYMPNDTGSDSTGNSSDITDITIPCRIKQFINMWQGVGRAIYAPPIAGNITCKSNITGILLTRDGGRTNDNSTETFRPGGGDMRDNWRSELYKYKVVEIKPLGIAPTEAKRRVVAREKRAAGLGAVIFGFLGAAGSTMGAASMALTVQARQLLSGIVQQQSNLLRAIEAQQHMLQLTVWGIKQLQARVLAVERYLKDQRLLGIWGCSGKLICPTTVPWNSSWSNRSLADIWENMTWMQWDKEIDNYTDIIYSLLEESQNQQERNEQELLALDSWNSLWTWFSISNWLWYIKIFIMIVGGLIGLRIIFAVLSIVNRVRQGYSPLSFQTLTPNPREPDRLRGIEEEGGEQDRDRSIRLVNGFLALVWEDLRSLCLFSYHRLRDFILVTARAVELLGRSSYKGLQRGWEALKYLGSLVQYWGLELKKSAISLFDTLAIVIAGWTDRVIELGQRIGRAILHIPRRIRQGFERALL
B5: HIV-1 Env, rebound clone, placebo arm (protein)
chain: MRVRGILRNYPQWWIWGILGFWMVMICNVVGNLWVTVYYGVPVWKDAKTTLFCASDAKAYDKEVHNVWATHACVPTDPNPRELVLGNVTENFNMWKNDMVDQMHEDVISLWDQSLKPCVKLTPLCVTLECVNANVTTVNVTNENINGTEEIKNCTFNATTEINDRKTREHALFYKLDIVPLETNHSSTKYRLINCNTSAVTQACPKVNFDPIPIHYCAPAGYAILKCNNKTFNGTGPCQNVSTVQCTHGIKPVVSTQLLLNGSLAEGEIIIRSENLTNNAKTIIVHLNDSIEITCIRPNNNTRKSIRIGPGQTFYATGDIIGDIRQAHCNISRNKWNQTLQRVSKKLGEHFPNATTIKFTSPSGGDLEIITHSFNCRGEFFYCNTSQLFNRTYMPNDTGSDSTGNSSDITDITIPCRIKQFINMWQGVGRAIYAPPIAGNITCKSNITGILLTRDGGRTNDNSTETFRPGGGDMRDNWRSELYKYKVVEIKPLGIAPTEAKRRVVAREKRAAGLGAVIFGFLGAAGSTMGAASMALTVQARQLLSGIVQQQSNLLRAIEAQQHMLQLTVWGIKQLQARVLAVERYLKDQRLLGIWGCSGKLICPTTVPWNSSWSNRSLADIWENMTWMQWDKEIDNYTNIIYSLLEESQNQQERNEQELLALDSWNSLWTWFSISNWLWYIKIFIMIVGGLIGLRIIFAVLSIVNRVRQGYSPLSFQTLTPNPREPDRLRGIEEEGGEQDRDRSIRLVNGFLALVWEDLRSLCLFSYHRLRDFILVTARAVELLGRSSYKGLQRGWEALKYLGSLVQYWGLELKKSAISLFDTLAIVIAGWTDRVIELGQRIGRTILHIPRRIRQGFERALL
B6: HIV-1 Env, rebound clone, placebo arm (protein)
chain: MRVRGILRNYPQWWIWGILGFWMVMICNVVGNLWVTVYYGVPVWKDAKTTLFCASDAKAYDKEVHNVWATHACVPTDPNPQELVLGNVTENFNMWKNDMVDQMHEDVISLWDQSLKPCVKLTPLCVTLECVNANVTTVNVTNENINGTEEIKNCTFNATTEINDRKTREHALFYKLDIVPLETNHSSTKYRLINCNTSAVTQACPKVNFDPIPIHYCAPAGYTILKCNNKTFNGTGPCQNVSTVQCTHGIKPVVSTQLLLNGSLAEGEIIIRSENLTNNAKTIIVHLNDSIEITCIRPNNNTRKSIRIGPGQTFYATGDIIGDIRQAHCNISRNKWNQTLQRVSKKLGEHFPNATTIKFTSPSGGDLEIITHSFNCRGEFFYCNTSQLFNRTYMPNDTGSDSTGNSSDITDITIPCRIKQFINMWQGVGRAIYAPPIAGNITCKSNITGILLTRDGGRTNDNSTETFRPGGGDMRDNWRSELYKYKVVEIKPLGIAPTEAKRRVVAREKRAAGLGAVIFGFLGAAGSTMGAASMALTVQARQLLSGIVQQQSNLLRAIEAQQHMLQLTVWGIKQLQARVLAVERYLKDQRLLGIWGCSGKLICPTTVPWNSSWSNRSLADIWENMTWMQWDKEIDNYTNIIYSLLEESQNQQERNEQELLALDSWNSLWTWFSISNWLWYIKIFIMIVGGLIGLRIIFAVLSIVNRVRQGYSPLSFQTLTPNPREPDRLRGIEEEGGEQDRDRSIRLVNGFLALVWEDLRSLCLFSYHRLRDFILVTARAVELLGRSSYKGLQRGWEALKYLGSLVQYWGLELKKSAISLFDTLAIVIAGWTDRVIELGQRIGRTILHIPRRIRQGFERALL

Molecular target: antibody 10-1074
Assay: neutralization IC50; higher = virus less sensitive to the antibody
Description: (§1)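 Pseudovirus bearing the Env chain mixed with antibody, from 50 µg/ml in fivefold dilutions, on TZM-bl reporter cells, in duplicate.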

| Binder | neutralization IC50 [µg/mL] |
| --- | --- |
| B1 | 0.013 |
| B2 | > 50 |
| B3 | 0.008 |
| B4 | 0.009 |
| B5 | 0.011 |
| B6 | 0.009 |

Molecular target: antibody 3BNC117
Assay: as above
Description: as §1

| Binder | neutralization IC50 [µg/mL] |
| --- | --- |
| B1 | 0.106 |
| B2 | 0.219 |
| B3 | 0.025 |
| B4 | 0.032 |
| B5 | 0.04 |
| B6 | 0.03 |

Molecular target: antibody 10-1074
Assay: neutralization IC80; higher = virus less sensitive to the antibody
Description: as §1

| Binder | neutralization IC80 [µg/mL] |
| --- | --- |
| B1 | 0.05 |
| B2 | > 50 |
| B3 | 0.029 |
| B4 | 0.028 |
| B5 | 0.026 |
| B6 | 0.026 |

Molecular target: antibody 3BNC117
Assay: as above
Description: as §1

| Binder | neutralization IC80 [µg/mL] |
| --- | --- |
| B1 | 0.374 |
| B2 | > 50 |
| B3 | 0.076 |
| B4 | 0.132 |
| B5 | 0.136 |
| B6 | 0.119 |
